In patent US7022736B2, “Enzyme inhibitors” (Istituto Di Ricerche Di Biologia Molecolare P Angeletti SpA, priority 1998, dated 2006) one finds IC50 data, which are given here for 11 compounds.

Protein sequences, listed by entry. Tags and fused reporters are not part of them. Residues count along the entry.
UniProt P26663, 2420-3010 limits assumed: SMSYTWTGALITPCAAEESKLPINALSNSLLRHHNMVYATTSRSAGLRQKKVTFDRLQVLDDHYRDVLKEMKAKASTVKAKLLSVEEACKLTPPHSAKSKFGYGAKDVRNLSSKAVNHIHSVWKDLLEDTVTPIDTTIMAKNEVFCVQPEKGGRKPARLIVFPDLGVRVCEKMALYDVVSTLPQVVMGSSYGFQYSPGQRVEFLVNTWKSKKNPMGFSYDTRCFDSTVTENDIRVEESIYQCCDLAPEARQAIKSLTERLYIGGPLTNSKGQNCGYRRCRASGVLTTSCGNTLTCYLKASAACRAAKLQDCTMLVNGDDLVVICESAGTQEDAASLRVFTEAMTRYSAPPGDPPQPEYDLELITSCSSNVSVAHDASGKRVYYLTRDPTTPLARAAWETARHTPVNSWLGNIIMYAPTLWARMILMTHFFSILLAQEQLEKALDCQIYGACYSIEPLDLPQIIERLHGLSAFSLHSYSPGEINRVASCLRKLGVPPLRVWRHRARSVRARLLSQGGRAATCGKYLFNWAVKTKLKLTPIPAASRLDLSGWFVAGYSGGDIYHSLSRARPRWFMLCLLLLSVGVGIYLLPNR

Where two headings read alike, the source gives them in different places.

Assay [1] concerns the target HCV RdRp (NS5B RNA-dependent RNA polymerase) (Hepatitis C virus genotype 1b, UniProt P26663). The assay can be described thus: Inhibition of hepatitis C virus RdRp (poly(A)/oligo(U), [3H]UTP incorporation). It is filed as biochemical. Here is the method:
In initial tests, the compounds were tested to see if they were effective as inhibitors of the RNA-dependent RNA polymerase (RdRp) of hepatitis C virus (HCV). The HCV NS5B protein is the viral RdRp; compounds capable of interfering with the activity of this enzyme are thus expected to block viral replication.
Test for Inhibition of Hepatatis C Virus RdRp
WO96/37619 describes the production of recombinant HCV RdRp from insect cells infected with recombinant baculovirus encoding the enzyme. […] The reference describes a polymerisation assay using poly (A) as a template and oligo (U) as a primer. Incorporation of tritiated UTP is quantified by measuring acid-insoluble radioactivity. The present inventors have employed this assay to screen the various compounds described above as inhibitors of HCV RdRp and other virally encoded polymerases.
Incorporation of radioactive UMP was measured as follows. The standard reaction (100 μl) was carried out in a buffer containing 20 mM tris/HCl pH 7.5, 5 mM MgCl2, 1 mM DTT, 50 mM NaCl, 1 mM EDTA, 2 OU Rnasin (Promega), 0.05% Triton X-100, 1 μCi[^3H] UTP (40 Ci/mmol,NEN), 10 μM UTP and 10 μg/ml poly (A). Oligo (U)12 (1 μg/ml, Genset) was added as a primer. The final NSSB enzyme concentration was 20 nM. After 1 hour incubation at 22° C. the reaction was stopped by adding 100 μl of 20% TCA and applying samples to DE81 filters. The filters were washed thoroughly with 5% TCA containing 1M Na2HPO4/NaH2PO4, pH 7.0, rinsed with water and then ethanol, air dried, and the filter-bound radioactivity was measured in the scintillation counter. By carrying out the reaction in the presence of various concentrations of each of the compounds set out above it was possible to determine IC50 values for each compound with the formula: % residual activity=100/(1+[I]/IC50)^s where [I] is the inhibitor concentration and “s” is the slope of the inhibition curve. Test for Inhibition of Hepatitis B Virus Polymerase

The target of assay [2] is reverse transcriptase of HIV (HIV-1 RT) (Human immunodeficiency virus type 1 group M subtype B, UniProt P03366). The assay can be described thus: Inhibition of HIV-1 reverse transcriptase ([3H]dTTP incorporation). Particulars: read-out: HIV (IC50); Tables IXa-IXc; unit inferred; NA=not active as an inhibitor. Here is the method: Test for Inhibition of Human Immunodeficiency Virus-1 Reverse Transcriptase
Analogous assays employed the reverse transcriptase of HIV (HIV -1RT) from Boehringer Mannhium.
Incorporation of radioactive dTTP was measured as follows. The standard reaction (100 μl) was carried out in a buffer containing 50 mM tris/HCl pH 8.2, 2.5 mM MgCl 2, 1 mM DTT, 80 mM KCl, 5 mM EGTA, 0.05% Triton X-100, 1 μCi[3H] dTTP (40 Ci/mmol, NEN), 10 μM […] and 10 μg/ml poly(A)/dT (from Pharmacia). The final HIV-1RT(enzyme concentration was 1 nM. After 1 hour incubation at 37° C. the reaction was stopped by adding 100 μl of 20% TCA and applying samples to DE81 filters. The filters were processed and IC50 values calculated as described above.

[3] abbreviates: read-out: HCV (IC50), Tables IXa-IXc, unit inferred.
[4] abbreviates: read-out: IC 50 (μM), HCV-polymerase, Tables I-VIII, 20 nM NS5B, 1 hour at 22° C.

Turning to `O=C(O)C(=O)CC(=O)c1ccc(-c2cc(C(F)(F)F)cc(C(F)(F)F)c2)o1`, the IC50 was more than 100 µM in assay [1] (setting [3]) and 16 µM in assay [2]. Consider `COc1cc(Cc2cc3ccccc3o2)cc(C(=O)CC(=O)C(=O)O)c1`, for which the IC50 in assay [1] (setting [4]) is 20 µM. For the compound `Cc1coc(C)c1C(=O)CC(=O)C(=O)O`, the IC50 in assay [1] (setting [4]) was 47.5 µM.

As to `N#CCCCOc1cc(O)cc(C(=O)CC(=O)C(=O)O)c1`, in assay [1] (setting [4]), the IC50 worked out at 0.9 µM.

As to `N#Cc1cc(F)ccc1COc1cccc(C(=O)CC(=O)C(=O)O)c1`, the IC50 in assay [1] (setting [3]) is 0.6 µM; in assay [1] (setting [4]), 0.6 µM; in assay [2], 50 µM. Turning to `O=C(O)C(=O)CC(=O)c1cc(O)cc(O)c1`, the IC50 in assay [1] (setting [4]) stood at 1.3 µM. As to `C=CCc1cccc(C(=O)CC(=O)C(=O)O)c1OCCCC#N`, the IC50 in assay [1] (setting [4]) was determined as 18 µM.

Take `Cc1cc(C(=O)CC(=O)C(=O)O)c(C)s1`: the IC50 in assay [1] (setting [4]) worked out at 27 µM. The same measure, in the same setting: next, `N#CCCCCOc1ccccc1C(=O)CC(=O)C(=O)O`: 7.8 µM. In the case of `CN(C)c1cccc2c(S(=O)(=O)N3CCCC(Cc4ccc(Cl)cc4)(C(=O)CC(=O)C(=O)O)C3)cccc12` (centres unmarked), the IC50 in assay [1] (read-out: IC 50 (μM), HCV-polymerase, Tables I-VIII, 20 nM NS5B, 1 hour at 22° C., tested form: dimethylamino group drawn protonated (N+)) is 55 µM. Regarding `Cc1c(Cc2ccccc2)cccc1C(=O)CC(=O)C(=O)O`, in assay [1] (setting [4]), the IC50 is more than 50 µM.
